Source: article PMC7617978, “Anti-trypanosomal quinazolines targeting lysyl-tRNA synthetases show partial efficacy in a mouse model of acute Chagas disease” (Science translational medicine, 2025)

Test system: T. cruzi (Sylvio X10/7A1 strain) epimastigote
Type: cell-based
Settings: in vitro; parasite not stated (discussion)

For `Cc1nc(N)c2c(F)c(F)c(NC3CCCC3)c(F)c2n1` [DMU371, N7-Cyclopentyl-5,6,8-trifluoro-2-methylquinazoline-4,7-diamine], the “resistance conferred by mutation of a single amino acid in the KRS1 active site” value was greater than 20 fold.
